Patent US6906205B2, “Spiro and dispiro 1,2,4-trioxolane antimalarials” (Medicines for Malaria Venture MMV, priority 2002, dated 2005)

Assay: chemical properties of OZ277 salts
Conditions: salt of OZ277

Row | SMILES | Taste
1 | CC(C)(N)CNC(=O)CC1CCC2(CC1)OOC1(O2)C2CC3CC(C2)CC1C3.O=C(O)CCC(=O)O (centres unmarked) [Succinate] | Not bitter
2 | CC(C)(N)CNC(=O)CC1CCC2(CC1)OOC1(O2)C2CC3CC(C2)CC1C3.Cc1ccc(S(=O)(=O)O)cc1 (centres unmarked) [Tosylate] | Not bitter
